Measured values from several laboratories, pooled; numbers as filed in NIAID ChemDB.

All rows: whole-cell or culture tests; species: Mycobacterium avium; read-out: inhibition

Conditions beyond the fields shown may differ between rows. Percent inhibition refers to the dose given; in toxicity tests it is the harm to the cells. An empty or dashed field is not shown.

smiles	tested at	method	strain	value
Cc1nc2ccc(Cl)cn2c1C(=O)NCc1ccc(C2CCN(c3ccc(OC(F)(F)F)cc3)CC2)c(F)c1	0.0031 µM	fluorescence	-	85%
O=c1[nH]c(=O)n([C@@H]2O[C@H](CO)[C@@H](O)[C@H]2F)cc1I	50 µg/mL	-	ATCC 25291	0%
CCc1cn([C@H]2C[C@H](O)[C@@H](CO)O2)c(=O)[nH]c1=O	100 µg/mL	resazurin	ATCC 25291	0%
N#C/C(=C\c1ccccc1)n1nnc2ccccc21	12.5 µg/mL	-	-	93%
CC(=O)OC[C@H]1O[C@@H](n2cc(/C=C/Br)c(=O)[nH]c2=O)C[C@@H]1OC(C)=O	50 µg/mL	-	ATCC 25291	0%
CO[C@H]1/C=C/O[C@@]2(C)Oc3c(C)c(O)c4c(O)c(c5c(c4c3C2=O)NC2(CCN(CC(C)C)CC2)N=5)=NC(=O)/C(C)=C\C=C\[C@H](C)[C@H](O)[C@@H](C)[C@@H](O)[C@@H](C)[C@H](OC(C)=O)[C@@H]1C	0.4 µg/mL	colony count	1581	>99%
O=C1NC(Nc2cccc(Cl)c2)=N/C1=C\c1ccccc1Cl	12.5 µg/mL	-	-	53%
CC(=O)N1N=C(c2ccncc2)OC1c1ccc(F)c(F)c1	12.5 µg/mL	-	-	98%
O=C1NC(=Nc2ccc(Cl)cc2Cl)N/C1=C\c1ccc(Cl)cc1Cl	12.5 µg/mL	-	-	11%
O=c1[nH]c(=O)n([C@H]2C[C@H](O)[C@@H](CO)O2)cc1/C=C/I	50 µg/mL	-	ATCC 25291	0%
Cc1nc2ccc(Cl)cn2c1C(=O)NCc1cc(F)c2c(c1)CCN(c1ccc(OC(F)(F)F)cc1)C2.Cl	0.13 µM	fluorescence	-	85%
CO[C@H]1/C=C/O[C@@]2(C)Oc3c(C)c(O)c4c(c3C2O)C2=NC3(CCN(CC(C)C)CC3)N(C(C)=O)C2=C(NC(=O)/C(C)=C\C=C\[C@H](C)[C@H](O)[C@@H](C)[C@@H](O)[C@@H](C)[C@H](OC(C)=O)[C@@H]1C)C4=O	0.4 µg/mL	colony count	1581	>99%
O=c1ccn([C@@H]2O[C@H](CO)[C@@H](O)[C@H]2F)c(=O)[nH]1	50 µg/mL	-	ATCC 25291	0%
[N-]=[N+]=N[C@H]1C[C@H](n2cc(Br)c(=O)[nH]c2=O)O[C@@H]1CO	100 µg/mL	resazurin	ATCC 25291	0%
CCc1nc2cc(F)ccn2c1C(=O)NCc1ccc(N2CCN(c3ccc(OC(F)(F)F)cn3)[C@@H](C)C2)c(F)c1.Cl	0.0042 µM	fluorescence	-	85%
OO	0.0005 µM	-	485	48%
CO[C@H]1/C=C/O[C@@]2(C)Oc3c(C)c(O)c4c(O)c(c5c(c4c3C2=O)NC2(CC[N+]([O-])(CC(C)C)CC2)N=5)=NC(=O)/C(C)=C\C=C\[C@H](C)[C@H](O)[C@@H](C)[C@@H](O)[C@@H](C)[C@H](OC(C)=O)[C@@H]1C	0.4 µg/mL	colony count	1581	0%
CC(=O)/C(N=Nc1ccc(C(=O)N/N=C/c2ccc([N+](=O)[O-])o2)cc1)=C(/O)c1ccccc1	12.5 µg/mL	-	-	45%
CCc1nc2ccc(Cl)cn2c1C(=O)NCc1ccc([C@@H]2CO[C@@H](c3ccc(OC(F)(F)F)cc3)CO2)c(F)c1.Cl	0.028 µM	fluorescence	-	85%
O=c1[nH]c(=O)n([C@H]2C[C@H](O)[C@@H](CO)O2)cc1/C=C/Br	50 µg/mL	-	ATCC 25291	0%
Cc1ccn2nc(C(F)(F)F)c(C(=O)NCc3ccc(N4CCN(c5ccc(OC(F)(F)F)cc5)[C@@H](C)C4)c(F)c3)c2c1.Cl	0.27 µM	fluorescence	-	85%
O=c1[nH]c(=O)n([C@H]2C[C@H](O)[C@@H](CO)O2)cc1Cl	50 µg/mL	-	ATCC 25291	0%
CCOc1ccc(N2CCN(c3ccc(CNC(=O)c4c(CC)nc5ccc(Cl)cn45)c(F)c3)C[C@@H]2C)c(F)c1.Cl	0.47 µM	fluorescence	-	85%
[N-]=[N+]=N[C@H]1C[C@H](n2cc(Cl)c(=O)[nH]c2=O)O[C@@H]1CO	100 µg/mL	resazurin	ATCC 25291	0%
CC(=O)OC[C@@H]1CC[C@H](n2ccc(=O)[nH]c2=O)O1	50 µg/mL	-	ATCC 25291	0%
Cc1ccn2c(C(=O)NCc3ccc4oc(-c5ccc(OC(F)(F)F)cc5)nc4c3)c(C)nc2c1.Cl	0.86 µM	fluorescence	-	85%
CO[C@H]1/C=C/O[C@@]2(C)Oc3c(C)c(O)c4c(c3C2=O)C2=NC3(CCN(CC(C)C)CC3)N(C(C)=O)C2=C(NC(=O)/C(C)=C\C=C\[C@H](C)[C@H](O)[C@@H](C)[C@@H](O)[C@@H](C)[C@H](OC(C)=O)[C@@H]1C)C4=O	0.4 µg/mL	colony count	1581	>99%
O=c1[nH]c(=O)n([C@H]2C[C@H](F)[C@@H](CO)O2)cc1Cl	50 µg/mL	-	ATCC 25291	0%

The last 4 rows once more:

smiles	tested at	method	strain	value
CC(=O)OC[C@@H]1CC[C@H](n2ccc(=O)[nH]c2=O)O1	50 µg/mL	-	ATCC 25291	0%
Cc1ccn2c(C(=O)NCc3ccc4oc(-c5ccc(OC(F)(F)F)cc5)nc4c3)c(C)nc2c1.Cl	0.86 µM	fluorescence	-	85%
CO[C@H]1/C=C/O[C@@]2(C)Oc3c(C)c(O)c4c(c3C2=O)C2=NC3(CCN(CC(C)C)CC3)N(C(C)=O)C2=C(NC(=O)/C(C)=C\C=C\[C@H](C)[C@H](O)[C@@H](C)[C@@H](O)[C@@H](C)[C@H](OC(C)=O)[C@@H]1C)C4=O	0.4 µg/mL	colony count	1581	>99%
O=c1[nH]c(=O)n([C@H]2C[C@H](F)[C@@H](CO)O2)cc1Cl	50 µg/mL	-	ATCC 25291	0%